Compound potency records, mixed from different reports. Data source: NIAID ChemDB in PubChem.

Shared fields: toxicity to cultured cells; cell line: HFF; measure: CC50

Neighbouring rows are from separate reports. CCn: concentration that lowers growth or viability of the cells by n%.

{"smiles": "CCC(CO)n1cc(C(=O)O)c(=O)c2cc(N)c(N3CCN(c4ccccn4)CC3)cc21", "read by": "MTT", "value": "128 µM"}
{"smiles": "OCC(CO)OCn1c(Cl)nc2c(Cl)c(Cl)ccc21", "read by": "visual reading", "value": ">100 µM"}
{"smiles": "O=C(Nc1ccc(NC(=S)Nc2cc(C(F)(F)F)cc(C(F)(F)F)c2)cc1)c1cscn1", "read by": "MTS", "value": "≥10 µg/mL"}
{"smiles": "Nc1nc2ncn(/C=C3\\C(F)C3(CO)CO)c2c(=O)[nH]1", "value": ">100 µM"}
{"smiles": "OCCOCn1c(=S)[nH]c2c(Cl)cc(Cl)cc21", "read by": "visual reading", "value": ">100 µM"}
{"smiles": "O=C(Nc1ccc(NC(=S)Nc2cc(C(F)(F)F)cc(C(F)(F)F)c2)cc1)c1cocn1", "read by": "MTS", "value": "≥10 µg/mL"}
{"smiles": "CNc1cc2c(=O)c(C(=O)O)cn(C)c2cc1N1CCN(c2cccc(C(F)(F)F)c2)CC1", "read by": "MTT", "value": "54.1 µM"}
{"smiles": "COc1cc(OC)c(NC(=S)Nc2ccc(NC(=O)c3ccco3)cc2C)cc1Cl", "read by": "MTS", "value": "≥10 µg/mL"}
{"smiles": "CN(C)c1nc2cc(Cl)c(Cl)cc2n1COCCO", "read by": "visual reading", "value": ">100 µM"}
{"smiles": "COc1cc(OC)c(NC(=S)Nc2ccc(NC(=O)c3ccco3)c(OC)c2)cc1Cl", "read by": "MTS", "value": "≥10 µg/mL"}
{"smiles": "CNc1nc2c(Cl)c(Cl)ccc2n1COC(CO)CO", "read by": "visual reading", "value": ">100 µM"}
{"smiles": "Nc1cc2c(=O)c(C(=O)O)cn(C3CC3)c2cc1N1CCN(c2cnccn2)CC1", "read by": "MTT", "value": "100.3 µM"}
{"smiles": "OCCOCn1c(Cl)nc2c(Cl)c(Cl)ccc21", "read by": "visual reading", "value": ">100 µM"}
{"smiles": "Cc1ccc(NC(=S)Nc2ccc(NC(=O)c3ccco3)cc2)cc1Cl", "read by": "MTS", "value": "≥10 µg/mL"}
{"smiles": "CNc1cc2c(=O)c(C(=O)O)cn(N(C)C)c2cc1N1CCN(c2ccccn2)CC1", "read by": "MTT", "value": "270.1 µM"}

Again, the opening 2 rows:

smiles	read by	value
CCC(CO)n1cc(C(=O)O)c(=O)c2cc(N)c(N3CCN(c4ccccn4)CC3)cc21	MTT	128 µM
OCC(CO)OCn1c(Cl)nc2c(Cl)c(Cl)ccc21	visual reading	>100 µM